In PubChem BioAssay AID743093 (The Scripps Research Institute Molecular Screening Center, 2013):
Only a part is listed here, and it is no random draw. Activity calls are given as the source filed them.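 Rule for the calls: active = inhibition above the mean plus 3 SD of compounds within the control limits, set per campaign (cut at about 38% in these data); inactive = the rest.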

Experiment: reduced ATP in mature Plasmodium gametocytes – ATP luminescence, HTS, primary screen (AID 743093);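 note: 0% = DMSO wells and 100% = medium only without gametocytes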
Details: P. falciparum stage V gametocytes, 24 h, at 10.9 µM, stronger effect = higher value

SMILES | inhibition
CC(C)c1ccc(OP(=O)(Nc2ccccn2)Oc2ccccc2F)cc1 (centres undefined) | inactive: 6.59%
CC(C)NC(=O)NP(=O)(Oc1ccccc1)Oc1ccccc1 | inactive: -4.49%
CCN(CC)C(=S)SC(NC=O)C(Cl)(Cl)Cl (centres undefined) | inactive: -4.34%
O=C(OC1CN2CCC1CC2)c1cccc2[nH]cnc12 (centres undefined) | inactive: -11.6%
O=[As](O)(c1ccc(O)cc1)c1ccccc1O | inactive: 4.98%
COc1ccc(N/C(=N/P(=O)(N2CCOCC2)N2CCOCC2)N2CCOCC2)cc1 | inactive: -35.4%
O=C(OC1CN2CCC1CC2)C12CC3CC(CC(C3)C1)C2 (centres undefined) | inactive: -38.4%
Cc1cc(=O)[nH]c(N[N+](=O)[O-])n1 | inactive: -3.74%
Cc1c2c(nc3ccccc13)SC(C(Cl)Cl)C2 (centres undefined) | inactive: 17.5%
COc1ccc2nc(NP(=O)(c3ccccc3)c3ccccc3)sc2c1 | inactive: -6.02%
COc1cc(I)ccc1[As](=O)(O)O | inactive: 22.1%
CCOC(=O)c1ccc(NC(=O)C(C)(CCl)SC)cc1 (centres undefined) | inactive: -0.63%
COP1(=S)c2c(C)nn(CCC#N)c2N=C(c2ccc(F)cc2)N1C (centres undefined) | inactive: -5.43%
Cc1cc(SC(NC=O)C(Cl)(Cl)Cl)ncn1 (centres undefined) | inactive: -17.8%
O=P(Nc1ccccn1)(c1cccc2ccccc12)c1cccc2ccccc12 | inactive: 7.4%
CCOC(=O)Nc1ccc([As](=O)(O)O)c(O)c1 | inactive: -0.59%
Cc1cc(SC(NC(=O)c2ccccc2)C(Cl)(Cl)Cl)nc(C(C)C)n1 (centres undefined) | inactive: -17.8%
O=P1(Nc2ncccn2)COc2ccccc2OC1 | inactive: -7.96%
O=P1(Nc2ccc(Br)cn2)COc2ccccc2OC1 | inactive: -7.49%
Nc1cccc([As](=O)(O)c2ccccc2)c1 | inactive: 9.46%
CC1CCC(C(C)C)C(OP(=O)(Nc2ccccn2)c2ccccc2)C1 (centres undefined) | inactive: -23.7%
O=C(/C=C/c1ccccc1)OC1CN2CCC1CC2 (centres undefined) | inactive: 12.6%
CN(C)C1(CNC(=O)c2ccc(S(C)(=O)=O)cc2)CCCCC1 | inactive: 5.2%
CC(C)/C=N\N=C(\N)N[N+](=O)[O-] | inactive: 6.3%
CCC1=CC2Cc3nc4ccc(Cl)cc4c(N)c3C(C1)C2 (centres undefined) | inactive: 3.08%
Clc1n[nH]nc1-c1nn[nH][15n]1 | inactive: -26%
CC(C)(C)C(=O)NC(Sc1ncccn1)C(Cl)(Cl)Cl (centres undefined) | inactive: 10.3%
Cc1ccc(NCCc2c([N+](=O)[O-])cc([N+](=O)[O-])cc2[N+](=O)[O-])cc1 | inactive: -3.19%
COc1cc(C2NCCC3(OCCO3)C2(C)C)cc(OC)c1OC (centres undefined) | inactive: 0.11%
